This is an account of results in patent publication US8674118B2, “Compounds and methods for the treatment or prevention of flavivirus infections” (priority 2005, dated 2014).

Some compounds may have been tested in ways that are not shown here. A value given as a limit tells only on which side of the number the result lay.

The test system of this assay is HCV RNA replication (replicon cell lines Huh-7, 5.2 and ET). The experiment in a line: Cell-Based Luciferase Reporter HCV RNA Replication Assay. Particulars: Huh-7, 5.2 or ET replicon cells, luciferase counts after 4 days incubation.
Regarding `CC1CCC(C(=O)N(c2cc(C3=CCCCC3)sc2C(=O)O)C2CCN(Cc3cccnc3)CC2)CC1` (stereo not shown), the IC50 was less than 5 µM.
The result for `CC1CCC(C(=O)N(c2cc(C3CCC(C)(C)CC3)sc2C(=O)O)C2CCN(C)CC2)CC1` (stereo not shown) reads less than 5 µM.
Take `CN1CCC(N(c2cc(C3=CCCCC3)sc2C(=O)O)C(=O)[C@H]2CC[C@H](C)CC2)CC1` (relative stereo): the IC50 was less than 5 µM.
The result for `C[C@H]1CC[C@H](C(=O)N(c2cc(C3=CCCCC3)sc2C(=O)O)C2CCN(CCF)CC2)CC1` (relative stereo) reads less than 5 µM.
